A mixed list of measured activities; the numbers were collected in NIAID ChemDB.

All rows: growth or infection tests; species: Aspergillus niger; read-out: zone

Zone: diameter of growth inhibition. Conditions beyond the fields shown may differ between rows. Blank or dashed fields: not listed here.

smiles,strain or isolate,tested at,value
Brc1ccc2c(c1)Sc1cccnc1N2CCCCCCN1c2ccc(Br)cc2Sc2cccnc21,MTCC 282,100 µg/mL,11 mm
CC(=O)N1N=C(c2sc3ccccc3c2Cl)OC1c1ccc(Cl)cc1,-,5 µg/disc,9 mm
Clc1ccc2c(c1)Sc1cccnc1N2CCCCN1c2ccc(Cl)cc2Sc2cccnc21,MTCC 282,100 µg/mL,10 mm
COc1ccc(C2SCC(=O)N2NC(=O)Cn2c(=O)c(C)nc3ccccc32)cc1OC,-,50 µg/mL,10 mm
CC(=O)c1cc(-c2nnc(-c3sc4ccccc4c3Cl)o2)ccc1O,-,5 µg/disc,11 mm
CCOC(=O)Cn1c(C(F)(F)C(F)(F)F)nc2ccc([N+](=O)[O-])cc21,MTCC 1344,500 µg/mL,800 mm
CC(=O)c1cccc(-c2nnc(-c3sc4ccccc4c3Cl)o2)c1,-,5 µg/disc,11 mm
Cc1n[nH]c(=S)n1N=C/C=C/c1c(-c2ccc(F)cc2)c2ccccc2n1C(C)C,-,500 µg/mL,14 mm
CCn1c(C(F)(F)F)nc2cc([N+](=O)[O-])ccc21,MTCC 1344,500 µg/mL,750 mm
CN(C)C=O,-,50 µg/mL,6 mm
Cc1nc2ccccc2n(CC(=O)NN2C(=O)CSC2c2ccc(C(F)(F)F)cc2)c1=O,-,100 µg/mL,22 mm
CCOC(=O)Cn1c(C(F)(F)C(F)(F)F)nc2cc([N+](=O)[O-])ccc21,MTCC 1344,500 µg/mL,850 mm
c1ccc2c(c1)Sc1cccnc1N2CCCCCCN1c2ccccc2Sc2cccnc21,MTCC 282,100 µg/mL,11 mm
C#CCn1c(C(F)(F)F)nc2ccc([N+](=O)[O-])cc21,MTCC 1344,500 µg/mL,650 mm
CC(=O)N1N=C(c2sc3ccccc3c2Cl)OC1c1ccccc1,-,5 µg/disc,10 mm
Cc1nc2ccccc2n(CC(=O)NN2C(=O)CSC2c2ccc(N(C)C)cc2)c1=O,-,50 µg/mL,10 mm
Cc1cc(=O)oc2c(C=Nc3cccc4cccc(N=Cc5c(O)ccc6c(C)cc(=O)oc56)c34)c(O)ccc12,MTCC 1881,500 µg/mL,18 mm
Clc1c(-c2nnc(-c3ccccc3)o2)sc2ccccc12,-,5 µg/disc,11 mm
Cc1nc2ccccc2n(CC(=O)NN2C(=O)CSC2c2ccc(Cl)cc2)c1=O,-,50 µg/mL,11 mm
Fc1ccc2c(c1)Sc1cccnc1N2CCCCN1c2ccc(F)cc2Sc2cccnc21,MTCC 282,100 µg/mL,11 mm
CC(=O)N1N=C(c2sc3ccccc3c2Cl)OC1c1cccc([N+](=O)[O-])c1,-,5 µg/disc,10 mm
Brc1ccc2c(c1)Sc1cccnc1N2CCCCN1c2ccc(Br)cc2Sc2cccnc21,MTCC 282,100 µg/mL,11 mm
Clc1ccc(-c2nnc(-c3sc4ccccc4c3Cl)o2)cc1,-,5 µg/disc,10 mm
C(=C\CN1c2ccccc2Sc2cccnc21)/CN1c2ccccc2Sc2cccnc21,MTCC 282,100 µg/mL,12 mm
Fc1ccc(-c2nnc(-c3sc4ccccc4c3Cl)o2)cc1,-,5 µg/disc,12 mm

2 of the rows above, restated:

| smiles | strain or isolate | tested at | value |
|---|---|---|---|
| Cc1nc2ccccc2n(CC(=O)NN2C(=O)CSC2c2ccc(C(F)(F)F)cc2)c1=O | - | 100 µg/mL | 22 mm |
| CCOC(=O)Cn1c(C(F)(F)C(F)(F)F)nc2cc([N+](=O)[O-])ccc21 | MTCC 1344 | 500 µg/mL | 850 mm |